Anti-infective test results gathered from many reports (values: NIAID ChemDB through PubChem).

Common to all: growth or infection tests; organism: Mycobacterium tuberculosis

MIC50, MIC90 and the like: level of inhibition, or share of isolates inhibited. Two numbers with a dash give a range or band. Inhibition is in % at the dose shown (toxicity tests: loss of growth or viability). MIC bound comes from a single tested concentration. Blank or dashed fields: not listed here. ECn is the concentration giving n% inhibition of infection, replication or growth. Rows are shuffled and stem from different studies.

structure	dose	strain or isolate	conditions	cells	method	changes	read-out	value
Cc1ccc(-c2ccc3c(n2)CC(C)(C)CC3=O)cc1		H37Rv					MIC	>25 µg/mL
Cc1c(CN2CCN(C)CC2)cc(-c2ccc(Cl)cc2)n1-c1ccc(Cl)cc1		CIP103471					MIC	0.7 µg/mL
CCCc1cnc(C(=O)/C=C/c2ccc(O)c(OC)c2)cn1		H37Rv					EC50	>12.5 µg/mL
CCn1cc(C(=O)N=Nc2c(O)n(-c3ccccc3)c3ccc(Br)cc23)c(=O)c2ccc(C)nc21							MIC	50 µg/mL
CN1C(=O)[C@@]2(c3ccccc31)N1CCCC1[C@@H](c1ccc(Br)cc1)[C@]21C(=O)/C(=C/c2ccc(Br)cc2)c2ccccc21					visual reading		MIC	25 µg/mL
C/C=C/C=c1\[nH]c(=O)/c(=C/c2ccccc2)[nH]c1=O		H37Rv			BACTEC		MIC bound	>12.5 µg/mL
NNC(=O)c1ccncc1		RCMB 010126			resazurin		MIC	0.75 µg/mL
O=C1/C(=C/c2ccc(Br)cc2)c2ccccc2[C@]12[C@@H](c1ccc(Br)cc1)C1CCCN1[C@]21C(=O)N(Cc2ccc([N+](=O)[O-])cc2)c2ccccc21					visual reading		MIC	6.25 µg/mL
Cc1ccc(CS/C(N)=N/N=C/c2cc(Cl)ccc2O)cc1		H37Rv	21 d		broth dilution		MIC	32 µM
COC(=O)C(=O)C(/C=N/C(=S)N=Nc1c(O)[nH]c2ccccc12)=C(\O)c1c(C)[nH]c2ccccc12	12.5 µg/mL	H37Rv			BACTEC		inhibition	0%
CC1(C)CC(=O)c2ccc(-c3ccc([N+](=O)[O-])cc3)nc2C1		H37Rv					MIC	>25 µg/mL
O[C@]12C=C(Cc3cnccn3)[C@@H]3CCN(CCCC/C=C\CC1)C[C@@]31C[C@@H]3CCCCCCN3C12		H37Rv					MIC	15.5 µg/mL
S=C(S)NN1CCCC1		TAC-R					MIC	0.4 µg/mL
CC1(C)CCc2nc(-c3ccc([N+](=O)[O-])cc3)ccc2C1=O		H37Rv					MIC	>25 µg/mL
CCN(CC)Cc1c(-c2ccccc2)oc(-c2ccccc2)c1CN(CC)CC		H37Rv			BACTEC		MIC bound	≤12.5 µg/mL
CCCCCCCCCC(=O)N[C@H]1[C@H](Oc2c3cc4cc2Oc2ccc(cc2Cl)[C@@H](O[C@@H]2O[C@H](CO)[C@@H](O)[C@H](O)[C@H]2NC(C)=O)[C@@H]2NC(=O)[C@H](NC(=O)[C@@H]4NC(=O)[C@H]4NC(=O)[C@@H](Cc5ccc(c(Cl)c5)O3)NC(=O)[C@H](N)c3ccc(O)c(c3)Oc3cc(O)cc4c3)c3ccc(O)c(c3)-c3c(O[C@H]4O[C@H](CO)[C@@H](O)[C@H](O)[C@@H]4O)cc(O)cc3[C@H](C(=O)O)NC2=O)O[C@H](CO)[C@@H](O)[C@@H]1O		190 isolates					MIC90	64 µg/mL
N/C(=N\N=C\c1cc(Cl)ccc1O)SCc1ccccc1		H37Rv	14 d		broth dilution		MIC	16 µM
CCOC(=O)Nc1c(C)n(C)n(-c2ccccc2)c1=O		H37Rv			BACTEC		MIC	≥12.8 µg/mL
CN(C)[C@@H]1CCN(c2cc(Nc3cc(C(=O)NC4CC4)ccn3)nc(-c3ccccc3)n2)C1		H37Rv					MIC99	>20 µM
O=C(O)[C@H]1/C(=C/CO)O[C@@H]2CC(=O)N21		190 isolates					MIC90	>128 µg/mL
O=C1/C(=C/c2ccc(Cl)cc2)c2ccccc2[C@@]12[C@H](c1ccc(Cl)cc1)C1CCCN1[C@]21C(=O)N(Cc2ccccc2)c2ccccc21					visual reading		MIC	6.25 µg/mL
CCn1cc(C(=O)N=Nc2c(O)n(C)c3ccccc23)c(=O)c2ccc(C)nc21							MIC	200 µg/mL
[O-][n+]1ccc(CC2=C[C@@]3(O)CC/C=C\CCCCN4CC[C@@H]2[C@]2(C[C@@H]5CCCCCCN5C23)C4)cc1		H37Rv					MIC	27.6 µg/mL
c1ccc(-c2nc(Nc3cc(C4CC4)[nH]n3)cc(OCCN3CCCC3)n2)cc1		H37Rv					MIC99	20 µM
C[C@@H](O)[C@@H]1C(=O)N2C(C(=O)O)=C(SCCN)C[C@H]12		190 isolates					MIC90	>128 µg/mL
CCOC(=O)c1sc(N/N=C/c2ccc([N+](=O)[O-])cc2)nc1C		H37Rv			resazurin		MIC80	>200 µM
CCSc1ccnc(C(N)=S)c1		H37Rv					MIC	60 µM
CC(C)(O/N=C(/C(=O)N[C@@H]1C(=O)N2C(C(=O)[O-])=C(C[n+]3ccccc3)CS[C@H]12)c1csc(N)n1)C(=O)O		190 isolates					MIC90	>128 µg/mL
CC(C)(C)OC(=O)C1=C2C=C(O)C=CC2(C)N(Cc2ccccc2)C1=N		H37Rv			resazurin		MIC bound	>6.25 µg/mL
CCn1cc(C(=O)O)c(=O)c2cc(F)c(N3CCN(C)CC3)cc21		H37Ra					MIC	2 µg/mL
CCOC(=O)c1ccc(-c2cn(S(=O)(=O)c3ccc(C)cc3)c3ccccc23)nc1C		H37Rv					MIC	25 µg/mL
N/C(=N\N=C\c1cc(Cl)ccc1O)SCc1cccc(Cl)c1		H37Rv	21 d		broth dilution		MIC	32 µM
COc1cc2oc3cc(=O)cc4oc(-c5ccccc5)cc(c2c2c1CCC(c1ccccc1)O2)c43		H37Rv			BACTEC		MIC	≥12.5 µg/mL
O[C@]12C=C(Cc3nccc4ccccc34)[C@@H]3CCN(CCCC/C=C\CC1)C[C@@]31C[C@@H]3CCCCCCN3C12		H37Rv					MIC	7.6 µg/mL
Nc1ccc(N=Nc2ccc(N=Nc3ccc(N=Nc4cc(S(=O)(=O)O)c5ccccc5c4O)c4ccc(S(=O)(=O)O)cc34)c3ccc(S(=O)(=O)O)cc23)cc1		H37Rv			BACTEC		MIC	≥128 µg/mL
Cc1ccc(/C(=C/Sc2ccc(Cl)cc2)n2cc(Sc3ccc(Cl)cc3)c(-c3ccc(C)cc3)n2)cc1		H37Rv			agar		MIC	12.5 µg/mL
N/C(=N\N=C\c1cc(Cl)ccc1O)SCc1ccc(F)cc1		H37Rv	14 d		broth dilution		MIC	16 µM
O=C(/C=C/c1ccc(O)cc1)c1cnccn1		H37Rv					EC50	>12.5 µg/mL
Cc1ccc(NC(=S)NN)cc1F	12.5 µg/mL	H37Rv			BACTEC		inhibition	59%
CCCCSc1ccnc(C(N)=S)c1		H37Rv					MIC	30 µM
Cc1ccc(NC(=O)Oc2ccc(C#N)cc2)cc1Cl		H37Rv			BACTEC		MIC bound	>12.5 µg/mL
CCCCCCCCCCSc1ccnc(C(N)=S)c1		H37Rv					MIC	30 µM
CC(C)Cc1cnc(C(=O)/C=C/c2ccccc2O)cn1		H37Rv					EC50	>12.5 µg/mL
CCn1cc(C(=O)N=Nc2c(O)n(CC)c3ccccc23)c(=O)c2ccc(C)nc21							MIC	200 µg/mL
CCCCCCCCSc1ccnc(C(N)=S)c1		H37Rv					MIC	15 µM
N/C(=N\N=C\c1ccccc1O)SCc1ccc(Cl)cc1		H37Rv	21 d		broth dilution		MIC	16 µM
c1ccc(Nc2cnc3cc4ccccc4cc3n2)cc1		Erdman					EC50	10–20 µM
CCOC(=O)C1C(=O)CC2c3nc4ccccc4cc3CN2C1=O	6.25 µg/mL	H37Rv			resazurin		inhibition	21%
O=C1/C(=C/c2ccc(Cl)cc2)c2ccccc2[C@]12[C@@H](c1ccc(Cl)cc1)C1CCCN1[C@]21C(=O)Nc2ccccc21					visual reading		MIC	6.25 µg/mL
CN1CCC2(CC1)C(=O)N(N1CCCCCC1)C(=O)N2c1ccccc1		H37Rv			BACTEC		MIC bound	>12.5 µg/mL
CN1CCN(CCOc2cc(Nc3cc(C4CC4)[nH]n3)nc(-c3ccccc3)n2)CC1		H37Rv			resazurin		MIC90	64 µM
CCOC(=O)c1ccc(-c2ccc([N+](=O)[O-])cc2)nc1C		H37Rv					MIC	25 µg/mL
N/C(=N\N=C\c1cc(Br)ccc1O)SCc1ccc(F)cc1		H37Rv	14 d		broth dilution		MIC	16 µM
CC(=O)NC1=C(Cl)C(=O)c2ccccc2C1=O		H37Rv			BACTEC		MIC	6.25 µg/mL
CO[C@H]1/C=C/O[C@@]2(C)Oc3c(C)c(O)c4c(O)c(c(/C=N/N5CCN(C)CC5)c(O)c4c3C2=O)NC(=O)/C(C)=C\C=C\[C@H](C)[C@H](O)[C@@H](C)[C@@H](O)[C@@H](C)[C@H](OC(C)=O)[C@@H]1C		R37RV					MIC	0.016 µg/mL
Cc1nc2ccc(N)cc2oc1=O	12.5 µg/mL	H37Rv			BACTEC		inhibition	-14%
Clc1ccc(N=c2cc3n(-c4ccc(Cl)cc4)c4ccccc4nc-3cc2Nc2ccc(Cl)cc2)cc1		H37Rv					MIC	3.3 µg/mL
N/C(=N\N=C\c1ccccc1)SCc1ccccc1		H37Rv	21 d		broth dilution		MIC	125 µM
CO[C@H]1/C=C/O[C@@]2(C)Oc3c(C)c(O)c4c(O)c(c(/C=N/N5CCN(C)CC5)c(O)c4c3C2=O)NC(=O)/C(C)=C\C=C\[C@H](C)[C@H](O)[C@@H](C)[C@@H](O)[C@@H](C)[C@H](OC(C)=O)[C@@H]1C		190 isolates					MIC90	0.5 µg/mL
CO[C@H]1/C=C/O[C@@]2(C)Oc3c(C)c(O)c4c(O)c(c5c(c4c3C2=O)NC2(CCN(CC(C)C)CC2)N=5)=NC(=O)/C(C)=C\C=C\[C@H](C)[C@H](O)[C@@H](C)[C@@H](O)[C@@H](C)[C@H](OC(C)=O)[C@@H]1C		1 isolates (Leu533Pro)					MIC	0.5 µg/mL
Nc1nnc2nc(CC(=O)/C=C/c3ccccc3)c(CC(=O)/C=C/c3ccccc3)nn12		H37Rv			BACTEC		MIC bound	>12.5 µg/mL
O=C1/C(=C/c2ccc(Br)cc2)c2ccccc2[C@]12[C@@H](c1ccc(Br)cc1)C1CCCN1[C@]21C(=O)Nc2ccc(Cl)cc21					visual reading		MIC	6.25 µg/mL
NNC(=O)c1ccncc1.O=C(O)c1cn(C2CC2)c2cc(N3CCNCC3)c(F)cc2c1=O		190 isolates					MIC90	0.1 µg/mL
CCCSc1ccnc(C(N)=S)c1		H37Rv					MIC	125 µM
COc1c(N2CCNC(C)C2)c(F)cc2c(=O)c(C(=O)O)cn(C3CC3)c12		11 strains					MIC50	0.12 µg/mL
CC1COc2c(N3CCN(C)CC3)c(F)cc3c(=O)c(C(=O)O)cn1c23		H37Rv			agar	Extensively drug-resistant	MIC	34.59 µM
O=[N+]([O-])c1cnc(/C=[N+](\[O-])CCO)n1CCO	6.25 µg/mL	H37Rv			resazurin		inhibition	3%
NC(=O)c1cnccn1		W296					MIC	>900 µg/mL
CCCc1cnc(C(=O)/C=C/c2ccc(N(C)C)cc2)cn1		H37Rv					EC50	>12.5 µg/mL
CCCCCSc1ccnc(C(N)=S)c1		H37Rv					MIC	15 µM
CN(C)[C@@H]1CCN(c2cc(Nc3cc(C4CC4)[nH]n3)nc(-c3ccccc3)n2)C1		H37Rv					MIC99	5 µM
CC=CCOc1cc(NC(=S)OC(C)C)ccc1Cl		H37Rv		VERO			MIC	12.5 µg/mL
CC1COc2c(N3CCN(C)CC3)c(F)cc3c(=O)c(C(=O)O)cn1c23		190 isolates					MIC90	1 µg/mL
CCCCCCCCCCCCN1C(=O)[N+](C)(C)N=C1[O-]		H37Rv			resazurin		MIC bound	>6.25 µg/mL
CC(C)CSc1ccnc(C(N)=S)c1		H37Rv					MIC	60 µM
S=C(S)N1CCCCC1		CS-R					MIC	0.8 µg/mL
CC(C)N=c1cc2n(-c3ccccc3)c3ccccc3nc-2cc1Nc1ccccc1		H37Rv					MIC	1 µg/mL
NNC(=O)CNc1cc(Cl)cc(Cl)c1		H37Rv			BACTEC		MIC	≥12.5 µg/mL
O=C1/C(=C/c2ccc(Cl)cc2)c2ccccc2[C@@]12[C@H](c1ccc(Cl)cc1)C1CCCN1[C@]21C(=O)Nc2ccc([N+](=O)[O-])cc21					visual reading		MIC	12.5 µg/mL

For reference, 12 entries again:

{"structure": "c1ccc(Nc2cnc3cc4ccccc4cc3n2)cc1", "strain or isolate": "Erdman", "read-out": "EC50", "value": "10–20 µM"}
{"structure": "CCOC(=O)c1sc(N/N=C/c2ccc([N+](=O)[O-])cc2)nc1C", "strain or isolate": "H37Rv", "method": "resazurin", "read-out": "MIC80", "value": ">200 µM"}
{"structure": "CC1COc2c(N3CCN(C)CC3)c(F)cc3c(=O)c(C(=O)O)cn1c23", "strain or isolate": "H37Rv", "method": "agar", "changes": "Extensively drug-resistant", "read-out": "MIC", "value": "34.59 µM"}
{"structure": "N/C(=N\\N=C\\c1cc(Cl)ccc1O)SCc1ccc(F)cc1", "strain or isolate": "H37Rv", "conditions": "14 d", "method": "broth dilution", "read-out": "MIC", "value": "16 µM"}
{"structure": "O=C1/C(=C/c2ccc(Br)cc2)c2ccccc2[C@]12[C@@H](c1ccc(Br)cc1)C1CCCN1[C@]21C(=O)Nc2ccc(Cl)cc21", "method": "visual reading", "read-out": "MIC", "value": "6.25 µg/mL"}
{"structure": "S=C(S)N1CCCCC1", "strain or isolate": "CS-R", "read-out": "MIC", "value": "0.8 µg/mL"}
{"structure": "CO[C@H]1/C=C/O[C@@]2(C)Oc3c(C)c(O)c4c(O)c(c(/C=N/N5CCN(C)CC5)c(O)c4c3C2=O)NC(=O)/C(C)=C\\C=C\\[C@H](C)[C@H](O)[C@@H](C)[C@@H](O)[C@@H](C)[C@H](OC(C)=O)[C@@H]1C", "strain or isolate": "190 isolates", "read-out": "MIC90", "value": "0.5 µg/mL"}
{"structure": "COc1c(N2CCNC(C)C2)c(F)cc2c(=O)c(C(=O)O)cn(C3CC3)c12", "strain or isolate": "11 strains", "read-out": "MIC50", "value": "0.12 µg/mL"}
{"structure": "Cc1ccc(CS/C(N)=N/N=C/c2cc(Cl)ccc2O)cc1", "strain or isolate": "H37Rv", "conditions": "21 d", "method": "broth dilution", "read-out": "MIC", "value": "32 µM"}
{"structure": "NC(=O)c1cnccn1", "strain or isolate": "W296", "read-out": "MIC", "value": ">900 µg/mL"}
{"structure": "Cc1ccc(-c2ccc3c(n2)CC(C)(C)CC3=O)cc1", "strain or isolate": "H37Rv", "read-out": "MIC", "value": ">25 µg/mL"}
{"structure": "CCOC(=O)c1ccc(-c2ccc([N+](=O)[O-])cc2)nc1C", "strain or isolate": "H37Rv", "read-out": "MIC", "value": "25 µg/mL"}